Measurements published in paper PMC10079225, “Discovery of Hippo signaling as a regulator of CSPG4 expression and as a therapeutic target for Clostridioides difficile disease” (2023).

Target: Clostridioides difficile TcdB1 (Clostridioides difficile) (UniProt P18177)

For “FZD 7 (Frizzled 7) (from UniProt O75084 33-574)”, the Kd was 7.71 nM.
